What was measured:
Assay type in all cases: cell-based
Conditions in all cases: Oocyte
[1] = target: T1, Nicotinic acetylcholine receptor alpha6/alpha3/beta4 (Homo sapiens, UniProt P30926+P32297+Q15825); experiment: Inhibition of human alpha6/alpha3beta4 nAChR expressed in Xenopus laevis oocytes assessed as inhibition of acetylcholine-induced current response measured after 5 min by two-electrode voltage-clamp relative to peIA
[2] = target: T2, Nicotinic acetylcholine receptor alpha6/alpha3/beta4 (Rattus norvegicus) (UniProt P04757+P12392+P43143); experiment: Inhibition of rat alpha6/alpha3beta4 nAChR expressed in Xenopus laevis oocytes assessed as inhibition of acetylcholine-induced current response measured after 5 min by two-electrode voltage-clamp method relative to peIA
[3] = target: T1, Nicotinic acetylcholine receptor alpha6/alpha3/beta4; experiment: Inhibition of human alpha6/alpha3beta4 nAChR expressed in Xenopus laevis oocytes assessed as inhibition of acetylcholine-induced current response by measuring fold change measured after 5 min by two-electrode voltage-clamp method relative to peIA
[4] = target: T2, Nicotinic acetylcholine receptor alpha6/alpha3/beta4 (Rattus norvegicus); experiment: Inhibition of rat alpha6/alpha3beta4 nAChR expressed in Xenopus laevis oocytes assessed as inhibition of acetylcholine-induced current response by measuring fold change measured after 5 min by two-electrode voltage-clamp method relative to peIA

Protein sequences, listed by entry. Tags and fused reporters are not part of them.
UniProt P30926, whole entry, looked up: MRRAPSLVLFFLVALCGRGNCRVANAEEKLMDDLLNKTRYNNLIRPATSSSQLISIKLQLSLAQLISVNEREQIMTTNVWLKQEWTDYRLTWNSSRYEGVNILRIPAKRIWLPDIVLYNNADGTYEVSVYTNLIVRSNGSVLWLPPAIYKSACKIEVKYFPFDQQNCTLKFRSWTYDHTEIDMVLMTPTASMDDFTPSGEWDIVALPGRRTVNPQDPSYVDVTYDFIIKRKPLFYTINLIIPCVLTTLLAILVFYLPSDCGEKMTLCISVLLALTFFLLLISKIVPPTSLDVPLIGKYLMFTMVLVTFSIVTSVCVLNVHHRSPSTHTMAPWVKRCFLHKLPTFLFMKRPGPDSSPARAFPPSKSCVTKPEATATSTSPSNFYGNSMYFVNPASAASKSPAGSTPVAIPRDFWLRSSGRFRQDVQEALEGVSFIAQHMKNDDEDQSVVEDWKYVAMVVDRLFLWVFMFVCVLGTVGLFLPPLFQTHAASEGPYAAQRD
UniProt P32297, whole entry, looked up: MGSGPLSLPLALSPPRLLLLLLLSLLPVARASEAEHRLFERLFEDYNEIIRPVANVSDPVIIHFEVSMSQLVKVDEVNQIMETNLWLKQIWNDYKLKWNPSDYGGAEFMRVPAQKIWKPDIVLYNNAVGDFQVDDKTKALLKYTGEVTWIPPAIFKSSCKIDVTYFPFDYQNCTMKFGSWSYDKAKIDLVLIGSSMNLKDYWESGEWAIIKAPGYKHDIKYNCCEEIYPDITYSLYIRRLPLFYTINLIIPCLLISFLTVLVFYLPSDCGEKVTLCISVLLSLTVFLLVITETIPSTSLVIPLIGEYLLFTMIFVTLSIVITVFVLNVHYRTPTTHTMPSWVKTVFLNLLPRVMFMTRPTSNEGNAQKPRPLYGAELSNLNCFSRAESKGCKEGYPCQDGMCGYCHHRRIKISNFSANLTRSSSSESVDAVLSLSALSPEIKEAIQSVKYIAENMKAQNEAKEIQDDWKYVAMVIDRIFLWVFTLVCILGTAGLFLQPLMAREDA
UniProt Q15825, whole entry, looked up: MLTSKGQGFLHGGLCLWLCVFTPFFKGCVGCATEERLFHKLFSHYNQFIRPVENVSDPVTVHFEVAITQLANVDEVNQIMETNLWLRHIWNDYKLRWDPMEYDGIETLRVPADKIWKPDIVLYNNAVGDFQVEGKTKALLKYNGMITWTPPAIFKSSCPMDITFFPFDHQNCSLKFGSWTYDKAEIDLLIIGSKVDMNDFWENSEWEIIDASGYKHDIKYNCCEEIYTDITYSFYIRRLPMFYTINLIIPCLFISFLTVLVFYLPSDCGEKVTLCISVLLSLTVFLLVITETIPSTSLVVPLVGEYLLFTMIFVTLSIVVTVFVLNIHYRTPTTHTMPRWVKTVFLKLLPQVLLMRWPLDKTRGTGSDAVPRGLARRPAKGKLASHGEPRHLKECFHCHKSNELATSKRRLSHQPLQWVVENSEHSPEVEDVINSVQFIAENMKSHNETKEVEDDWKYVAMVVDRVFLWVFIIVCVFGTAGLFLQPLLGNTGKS
UniProt P04757, whole entry, looked up: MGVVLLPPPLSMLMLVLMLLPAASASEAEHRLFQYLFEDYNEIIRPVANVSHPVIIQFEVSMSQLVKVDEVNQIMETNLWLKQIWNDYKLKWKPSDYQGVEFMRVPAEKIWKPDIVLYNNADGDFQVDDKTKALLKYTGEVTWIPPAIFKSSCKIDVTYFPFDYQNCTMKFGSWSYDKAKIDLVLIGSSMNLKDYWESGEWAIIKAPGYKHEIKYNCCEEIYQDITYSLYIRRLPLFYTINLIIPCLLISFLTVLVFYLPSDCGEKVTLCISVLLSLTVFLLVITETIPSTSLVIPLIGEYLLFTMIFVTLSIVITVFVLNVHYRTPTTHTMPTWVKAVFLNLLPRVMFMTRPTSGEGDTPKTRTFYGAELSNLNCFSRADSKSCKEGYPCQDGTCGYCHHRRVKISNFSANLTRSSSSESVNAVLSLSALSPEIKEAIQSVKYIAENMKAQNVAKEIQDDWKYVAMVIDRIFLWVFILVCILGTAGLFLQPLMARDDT
UniProt P12392, whole entry, looked up: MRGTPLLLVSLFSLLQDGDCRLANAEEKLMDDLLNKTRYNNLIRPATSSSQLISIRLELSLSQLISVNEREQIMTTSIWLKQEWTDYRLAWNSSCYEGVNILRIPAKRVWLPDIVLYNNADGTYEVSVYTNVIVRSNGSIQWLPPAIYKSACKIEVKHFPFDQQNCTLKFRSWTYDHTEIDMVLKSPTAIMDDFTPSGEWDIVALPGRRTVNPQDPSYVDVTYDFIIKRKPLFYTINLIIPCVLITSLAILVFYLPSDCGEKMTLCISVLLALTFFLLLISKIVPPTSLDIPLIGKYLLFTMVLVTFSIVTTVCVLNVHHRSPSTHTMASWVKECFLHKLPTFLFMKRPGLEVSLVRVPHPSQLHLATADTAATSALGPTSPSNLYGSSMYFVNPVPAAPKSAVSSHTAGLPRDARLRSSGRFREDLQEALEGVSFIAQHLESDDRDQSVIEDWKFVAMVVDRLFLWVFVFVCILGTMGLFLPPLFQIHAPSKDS
UniProt P43143, whole entry, looked up: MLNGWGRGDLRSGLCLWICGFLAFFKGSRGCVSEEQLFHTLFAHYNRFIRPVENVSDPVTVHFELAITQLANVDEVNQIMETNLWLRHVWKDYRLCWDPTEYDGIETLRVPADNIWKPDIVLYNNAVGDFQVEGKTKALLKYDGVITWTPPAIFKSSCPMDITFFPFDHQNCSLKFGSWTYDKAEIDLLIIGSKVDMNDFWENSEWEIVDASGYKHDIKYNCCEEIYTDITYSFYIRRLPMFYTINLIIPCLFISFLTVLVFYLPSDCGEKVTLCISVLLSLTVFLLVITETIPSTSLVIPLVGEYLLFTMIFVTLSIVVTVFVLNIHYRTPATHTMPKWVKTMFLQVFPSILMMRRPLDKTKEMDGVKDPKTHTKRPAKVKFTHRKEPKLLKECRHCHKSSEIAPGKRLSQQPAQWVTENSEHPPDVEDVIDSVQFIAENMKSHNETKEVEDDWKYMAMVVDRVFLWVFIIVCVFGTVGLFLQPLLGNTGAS

Row | SMILES | deltalogIC50 [1] | deltalogIC50 [2] | fold change (FC) [3] | fold change (FC) [4]
1 | CC(C)C[C@@H]1NC(=O)[C@H](CCC(=O)O)NC(=O)[C@@H]2CCCN2C(=O)[C@H](Cc2cnc[nH]2)NC(=O)[C@H](CC(N)=O)NC(=O)[C@H](C(C)C)NC(=O)[C@H](CO)NC(=O)[C@@H]2CSSC[C@H](NC(=O)CN)C(=O)N[C@@H](CSSC[C@@H](C(N)=O)NC1=O)C(=O)N[C@@H](CO)C(=O)N[C@@H](CC(N)=O)C(=O)N1CCC[C@H]1C(=O)N[C@@H](C)C(=O)N2 | 0.7 | -0.3 | 4 | < 3
2 | CC(C)[C@@H]1NC(=O)[C@H](CCC(=O)O)NC(=O)[C@@H]2CCCN2C(=O)[C@H](Cc2cnc[nH]2)NC(=O)[C@H](CC(N)=O)NC(=O)[C@H](C(C)C)NC(=O)[C@H](CO)NC(=O)[C@@H]2CSSC[C@H](NC(=O)CN)C(=O)N[C@@H](CSSC[C@@H](C(N)=O)NC1=O)C(=O)N[C@@H](CO)C(=O)N[C@@H](Cc1cnc[nH]1)C(=O)N1CCC[C@H]1C(=O)N[C@@H](C)C(=O)N2 | 0.1 | -0.3 | < 3 | < 3
3 | CC[C@H](C)[C@@H]1NC(=O)[C@H](CCC(=O)O)NC(=O)[C@@H]2CCCN2C(=O)[C@H](Cc2cnc[nH]2)NC(=O)[C@H](CCCNC(=N)N)NC(=O)[C@H](C(C)C)NC(=O)[C@H](Cc2cnc[nH]2)NC(=O)[C@@H]2CSSC[C@H](NC(=O)CN)C(=O)N[C@@H](CSSC[C@@H](C(N)=O)NC1=O)C(=O)N[C@@H](CO)C(=O)N[C@@H](Cc1cnc[nH]1)C(=O)N1CCC[C@H]1C(=O)N[C@@H](C(C)C)C(=O)N2 | -1.2 | -1.8 | 16 | 43
4 | CC(C)C[C@@H]1NC(=O)[C@H](CCCNC(=N)N)NC(=O)[C@@H]2CCCN2C(=O)[C@H](Cc2cnc[nH]2)NC(=O)[C@H](CC(N)=O)NC(=O)[C@H](C(C)C)NC(=O)[C@H](CO)NC(=O)[C@@H]2CSSC[C@H](NC(=O)CN)C(=O)N[C@@H](CSSC[C@@H](C(N)=O)NC1=O)C(=O)N[C@@H](CO)C(=O)N[C@@H](Cc1cnc[nH]1)C(=O)N1CCC[C@H]1C(=O)N[C@@H](C)C(=O)N2 | 0.9 | 0.9 | 7 | 3
5 | CC(C)C[C@@H]1NC(=O)[C@H](CC(=O)O)NC(=O)[C@@H]2CCCN2C(=O)[C@H](Cc2cnc[nH]2)NC(=O)[C@H](CC(N)=O)NC(=O)[C@H](C(C)C)NC(=O)[C@H](CO)NC(=O)[C@@H]2CSSC[C@H](NC(=O)CN)C(=O)N[C@@H](CSSC[C@@H](C(N)=O)NC1=O)C(=O)N[C@@H](CO)C(=O)N[C@@H](Cc1cnc[nH]1)C(=O)N1CCC[C@H]1C(=O)N[C@@H](C)C(=O)N2 | 0.3 | 0.6 | < 2 | 3
6 | CC(C)C[C@@H]1NC(=O)[C@H](CCC(N)=O)NC(=O)[C@@H]2CCCN2C(=O)[C@H](Cc2cnc[nH]2)NC(=O)[C@H](CC(N)=O)NC(=O)[C@H](C(C)C)NC(=O)[C@H](CO)NC(=O)[C@@H]2CSSC[C@H](NC(=O)CN)C(=O)N[C@@H](CSSC[C@@H](C(N)=O)NC1=O)C(=O)N[C@@H](CO)C(=O)N[C@@H](Cc1cnc[nH]1)C(=O)N1CCC[C@H]1C(=O)N[C@@H](C)C(=O)N2 | 0.3 | 0.1 | < 2 | < 3
7 | CC(C)C[C@@H]1NC(=O)[C@H](CC(C(=O)O)C(=O)O)NC(=O)[C@@H]2CCCN2C(=O)[C@H](Cc2cnc[nH]2)NC(=O)[C@H](CC(N)=O)NC(=O)[C@H](C(C)C)NC(=O)[C@H](CO)NC(=O)[C@@H]2CSSC[C@H](NC(=O)CN)C(=O)N[C@@H](CSSC[C@@H](C(N)=O)NC1=O)C(=O)N[C@@H](CO)C(=O)N[C@@H](Cc1cnc[nH]1)C(=O)N1CCC[C@H]1C(=O)N[C@@H](C)C(=O)N2 | 0.4 | 0.5 | 3 | 3
8 | CC(C)C[C@@H]1NC(=O)[C@H](CCC(=O)O)NC(=O)[C@H](CO)NC(=O)[C@H](Cc2cnc[nH]2)NC(=O)[C@H](CC(N)=O)NC(=O)[C@H](C(C)C)NC(=O)[C@H](CO)NC(=O)[C@@H]2CSSC[C@H](NC(=O)CN)C(=O)N[C@@H](CSSC[C@@H](C(N)=O)NC1=O)C(=O)N[C@@H](CO)C(=O)N[C@@H](Cc1cnc[nH]1)C(=O)N1CCC[C@H]1C(=O)N[C@@H](C)C(=O)N2 | 0.5 | -0.1 | 3 | < 3
9 | CC(C)C[C@@H]1NC(=O)[C@H](C)NC(=O)[C@@H]2CCCN2C(=O)[C@H](Cc2cnc[nH]2)NC(=O)[C@H](CCCNC(=N)N)NC(=O)[C@H](C)NC(=O)[C@H](CCCNC(=N)N)NC(=O)[C@@H]2CSSC[C@H](NC(=O)CN)C(=O)N[C@@H](CSSC[C@@H](C(N)=O)NC1=O)C(=O)N[C@@H](CO)C(=O)N[C@@H](Cc1cnc[nH]1)C(=O)N1CCC[C@H]1C(=O)N[C@@H](C(C)C)C(=O)N2 | 0.9 | 1.9 | 8 | 73
10 | CC(C)C[C@@H]1NC(=O)[C@H](CCC(=O)O)NC(=O)[C@@H]2CCCN2C(=O)[C@H](Cc2cnc[nH]2)NC(=O)[C@H](C)NC(=O)[C@H](C(C)C)NC(=O)[C@H](CO)NC(=O)[C@@H]2CSSC[C@H](NC(=O)CN)C(=O)N[C@@H](CSSC[C@@H](C(N)=O)NC1=O)C(=O)N[C@@H](CO)C(=O)N[C@@H](Cc1cnc[nH]1)C(=O)N1CCC[C@H]1C(=O)N[C@@H](C)C(=O)N2 | 0.2 | -0.4 | < 3 | –
11 | CCCC[C@@H]1NC(=O)[C@H](CCC(=O)O)NC(=O)[C@@H]2CCCN2C(=O)[C@H](Cc2cnc[nH]2)NC(=O)[C@H](CC(N)=O)NC(=O)[C@H](C(C)C)NC(=O)[C@H](CO)NC(=O)[C@@H]2CSSC[C@H](NC(=O)CN)C(=O)N[C@@H](CSSC[C@@H](C(N)=O)NC1=O)C(=O)N[C@@H](CO)C(=O)N[C@@H](Cc1cnc[nH]1)C(=O)N1CCC[C@H]1C(=O)N[C@@H](C)C(=O)N2 | 0.5 | 0.3 | 3 | < 3
12 | CC(C)C[C@@H]1NC(=O)[C@H](CCC(=O)O)NC(=O)[C@@H]2CCCN2C(=O)[C@H](Cc2cnc[nH]2)NC(=O)[C@H](CCCNC(=N)N)NC(=O)[C@H](C(C)C)NC(=O)[C@H](CC(N)=O)NC(=O)[C@@H]2CSSC[C@H](NC(=O)CN)C(=O)N[C@@H](CSSC[C@@H](C(N)=O)NC1=O)C(=O)N[C@@H](CO)C(=O)N[C@@H](Cc1cnc[nH]1)C(=O)N1CCC[C@H]1C(=O)N[C@@H](C(C)C)C(=O)N2 | -1.4 | -1.9 | 16 | 43
13 | CC(C)C[C@@H]1NC(=O)C(CCCC(=O)O)NC(=O)[C@@H]2CCCN2C(=O)[C@H](Cc2cnc[nH]2)NC(=O)[C@H](CC(N)=O)NC(=O)[C@H](C(C)C)NC(=O)[C@H](CO)NC(=O)[C@@H]2CSSC[C@H](NC(=O)CN)C(=O)N[C@@H](CSSC[C@@H](C(N)=O)NC1=O)C(=O)N[C@@H](CO)C(=O)N[C@@H](Cc1cnc[nH]1)C(=O)N1CCC[C@H]1C(=O)N[C@@H](C)C(=O)N2 (some centres undefined) | 0.9 | 0.8 | 9 | 3
14 | CC(C)C[C@@H]1NC(=O)[C@H](CCC(=O)O)NC(=O)[C@@H]2CCCN2C(=O)[C@H](Cc2cnc[nH]2)NC(=O)[C@H](CC(N)=O)NC(=O)[C@H](C(C)C)NC(=O)[C@H](Cc2cnc[nH]2)NC(=O)[C@@H]2CSSC[C@H](NC(=O)CN)C(=O)N[C@@H](CSSC[C@@H](C(N)=O)NC1=O)C(=O)N[C@@H](CO)C(=O)N[C@@H](Cc1cnc[nH]1)C(=O)N1CCC[C@H]1C(=O)N[C@@H](C)C(=O)N2 | -0.4 | -0.9 | < 3 | > 3
15 | CC(C)C[C@@H]1NC(=O)C(CCCCCC(=O)O)NC(=O)[C@@H]2CCCN2C(=O)[C@H](Cc2cnc[nH]2)NC(=O)[C@H](CC(N)=O)NC(=O)[C@H](C(C)C)NC(=O)[C@H](CO)NC(=O)[C@@H]2CSSC[C@H](NC(=O)CN)C(=O)N[C@@H](CSSC[C@@H](C(N)=O)NC1=O)C(=O)N[C@@H](CO)C(=O)N[C@@H](Cc1cnc[nH]1)C(=O)N1CCC[C@H]1C(=O)N[C@@H](C)C(=O)N2 (some centres undefined) | 1.2 | 0.7 | 15 | 3
16 | CC(C)C[C@@H]1NC(=O)[C@H](CCC(=O)O)NC(=O)[C@@H]2CCCN2C(=O)[C@H](Cc2cnc[nH]2)NC(=O)[C@H](CC(N)=O)NC(=O)[C@H](C(C)C)NC(=O)[C@H]([C@@H](C)O)NC(=O)[C@@H]2CSSC[C@H](NC(=O)CN)C(=O)N[C@@H](CSSC[C@@H](C(N)=O)NC1=O)C(=O)N[C@@H](CO)C(=O)N[C@@H](Cc1cnc[nH]1)C(=O)N1CCC[C@H]1C(=O)N[C@@H](C)C(=O)N2 | -0.5 | -0.1 | 3 | –
17 | CC(C)C[C@@H]1NC(=O)[C@H](CCC(=O)O)NC(=O)[C@@H]2CCCN2C(=O)[C@H](Cc2cnc[nH]2)NC(=O)[C@H](CCCCN)NC(=O)[C@H](C(C)C)NC(=O)[C@H](CO)NC(=O)[C@@H]2CSSC[C@H](NC(=O)CN)C(=O)N[C@@H](CSSC[C@@H](C(N)=O)NC1=O)C(=O)N[C@@H](CO)C(=O)N[C@@H](Cc1cnc[nH]1)C(=O)N1CCC[C@H]1C(=O)N[C@@H](C)C(=O)N2 | -0.7 | -0.5 | 3 | 5
18 | CC(C)C[C@@H]1NC(=O)[C@H](CCC(=O)O)NC(=O)[C@@H]2CCCN2C(=O)[C@H](Cc2cnc[nH]2)NC(=O)[C@H](CC(=O)O)NC(=O)[C@H](C(C)C)NC(=O)[C@H](CO)NC(=O)[C@@H]2CSSC[C@H](NC(=O)CN)C(=O)N[C@@H](CSSC[C@@H](C(N)=O)NC1=O)C(=O)N[C@@H](CO)C(=O)N[C@@H](Cc1cnc[nH]1)C(=O)N1CCC[C@H]1C(=O)N[C@@H](C)C(=O)N2 | 1.3 | 1.7 | 18 | –
